{
  "source": "patent US12029716B2",
  "about": "“Derivatives of korormicin useful as antibiotics” (Viotika Life Sciences Inc., priority 2015, dated 2024)",
  "test_system": "Chlamydia trachomatis",
  "assay": "C. trachomatis infection of HeLa cells (chlamydial inclusions, immunocytochemistry)",
  "assay_type": "cell-based",
  "protocol": "Chlamydia trachomatis (C. trachomatis) propagation and treatment were carried out as follows. C. trachomatis was propagated in HeLa cells. The titer of C. trachomatis was determined in cyclohexamide-treated HeLa cells, and concentrations used were expressed as inclusion forming units (IFU) per mL.\nAssessment of the level of infection was determined as follows. HeLa cells were seeded on glass coverslips in 24-well plates at 3×10^4 cells/well and inoculated with C. trachomatis and then treated with antibiotic (or other compounds of interest). After 48 hours, the infected cells were fixed with 100% methanol and then incubated with anti-Chlamydia monoclonal antibody. Inclusion bodies were visualized by staining with FITC-conjugated secondary antibody and DAPI as counterstaining. The samples were examined by a fluorescence microscopy. Number of inclusions was calculated per 100 cells.\nAssessment of antichlamydial activity of Korormicin (Scheme shown in FIG. 1) and PEG-2 (Scheme shown in FIG. 2) were performed as follows. Cells were infected with C. trachomatis and treated with different concentrations of antibiotic of choice. After 48 h of C. trachomatis was collected (P1) and used to infect fresh cells. Subsequent collections of C. trachomatis were used to obtain P2, P3, P4 and P5 stocks of C. trachomatis. […]",
  "data": [
    {"smiles": "CCCCCCC/C=C/C=C\\[C@H](O)CC(=O)NC1=C[C@](C)(CC)OC1=O", "note": "[PEG-2]", "values": [
      {"measurement": "effectiveness as antichlamydial agent relative to native korormicin", "result": "~1,000 times"},
      {"measurement": "anti-chlamydial effect in excess of that of korormicin", "setting": "5 consecutive treatments, 15 μM", "result": "at least 2 orders of magnitude"}
    ]}
  ]
}
